Where a chain is given by its changes, count along the chain named.
T1: human Kv1.1 channel (human), Q09470
T1 chain: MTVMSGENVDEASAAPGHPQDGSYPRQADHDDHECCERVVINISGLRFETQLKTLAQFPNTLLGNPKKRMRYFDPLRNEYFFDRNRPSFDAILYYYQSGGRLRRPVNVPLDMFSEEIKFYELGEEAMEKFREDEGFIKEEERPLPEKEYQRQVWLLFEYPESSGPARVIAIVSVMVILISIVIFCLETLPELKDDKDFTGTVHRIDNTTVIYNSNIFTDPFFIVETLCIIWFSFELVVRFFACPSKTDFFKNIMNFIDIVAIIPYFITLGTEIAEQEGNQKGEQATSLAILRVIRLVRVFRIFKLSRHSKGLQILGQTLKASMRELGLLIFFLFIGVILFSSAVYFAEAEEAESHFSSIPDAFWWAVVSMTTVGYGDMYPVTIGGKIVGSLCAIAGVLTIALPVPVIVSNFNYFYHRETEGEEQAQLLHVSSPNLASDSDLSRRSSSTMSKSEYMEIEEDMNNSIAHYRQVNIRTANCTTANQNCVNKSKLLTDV

B1: OSK1 analog Ala-3 (SEQ ID No: 1402) (peptide)
peptide: GVAINVKCKISRQCLEPCKKAGMRFGKCMNGKCHCTPK
modifications: not checked
B2: OSK1 Glutamic Acid analog G26E (peptide)
peptide: B1 peptide with A3I, G26E
modifications: not checked
B3: OSK1 analog Ala-2 (SEQ ID No: 1401) (peptide)
peptide: B1 peptide with V2A, A3I
modifications: not checked
B4: OSK1 Arginine analog M29R (peptide)
peptide: B1 peptide with A3I, M29R
modifications: not checked
B5: OSK1 analog Ala-4 (SEQ ID No: 1403) (peptide)
peptide: B1 peptide with A3I, I4A
modifications: not checked
B6: OSK1 Alanine analog G1A (peptide)
peptide: B1 peptide with G1A, A3I
modifications: not checked
B7: OSK1 Arginine analog T36R (peptide)
peptide: B1 peptide with A3I, T36R
modifications: not checked
B8: OSK1 analog Ala-22 (SEQ ID No: 1418) (peptide)
peptide: B1 peptide with A3I, G22A
modifications: not checked
B9: OSK1 analog Ala-12 (SEQ ID No: 1410) (peptide)
peptide: B1 peptide with A3I, R12A
modifications: not checked
B10: OSK1 analog Ala-13 (SEQ ID No: 1411) (peptide)
peptide: B1 peptide with A3I, Q13A
modifications: not checked
B11: OSK1 analog Ala-3O (SEQ ID No: 1425) (peptide)
peptide: B1 peptide with A3I, N30A
modifications: not checked
B12: OSK1 analog Ala-7 (SEQ ID No: 1406) (peptide)
peptide: B1 peptide with A3I, K7A
modifications: not checked
B13: OSK1 analog Ala-19 (SEQ ID No: 1415) (peptide)
peptide: B1 peptide with A3I, K19A
modifications: not checked
B14: OSK1 Glutamic Acid analog N5E (peptide)
peptide: B1 peptide with A3I, N5E
modifications: not checked
B15: OSK1 analog Ala-34 (SEQ ID No: 1428) (peptide)
peptide: B1 peptide with A3I, H34A
modifications: not checked
B16: OSK1 analog Ala-23 (SEQ ID No: 1419) (peptide)
peptide: B1 peptide with A3I, M23A
modifications: not checked
B17: OSK1 Alanine analog S11A (peptide)
peptide: B1 peptide with A3I, S11A
modifications: not checked
B18: OSK1 Arginine analog A21R (peptide)
peptide: B1 peptide with A3I, A21R
modifications: not checked
B19: OSK1 analog Ala-10 (SEQ ID No: 1408) (peptide)
peptide: B1 peptide with A3I, I10A
modifications: not checked
B20: OSK1 analog Ala-20 (SEQ ID No: 1416) (peptide)
peptide: B1 peptide with A3I, K20A
modifications: not checked
B21: OSK1 analog Ala-17 (SEQ ID No: 1414) (peptide)
peptide: B1 peptide with A3I, P17A
modifications: not checked
B22: OSK1 Glutamic Acid analog R12E (peptide)
peptide: B1 peptide with A3I, R12E
modifications: not checked
B23: OSK1 analog Ala-25 (SEQ ID No: 1421) (peptide)
peptide: B1 peptide with A3I, F25A
modifications: not checked
B24: OSK1 analog Ala-6 (SEQ ID No: 1405) (peptide)
peptide: B1 peptide with A3I, V6A
modifications: not checked
B25: OSK1 analog Ala-16 (SEQ ID No: 1413) (peptide)
peptide: B1 peptide with A3I, E16A
modifications: not checked
B26: OSK1 Arginine analog K38R (peptide)
peptide: B1 peptide with A3I, K38R
modifications: not checked
B27: OSK1 analog Ala-5 (SEQ ID No: 1404) (peptide)
peptide: B1 peptide with A3I, N5A
modifications: not checked
B28: OSK1 analog Ala-27 (SEQ ID No: 1423) (peptide)
peptide: B1 peptide with A3I, K27A
modifications: not checked
B29: OSK1 analog Ala-1 (SEQ ID No: 1400) (peptide)
peptide: B1 peptide with G1A, A3I
modifications: not checked
B30: OSK1 Arginine analog G26R (peptide)
peptide: B1 peptide with A3I, G26R
modifications: not checked
B31: OSK1 Alanine analog I10A (peptide)
peptide: B1 peptide with A3I, I10A
modifications: not checked
B32: OSK1 analog Ala-29 (SEQ ID No: 1424) (peptide)
peptide: B1 peptide with A3I, M29A
modifications: not checked
B33: OSK1 Alanine analog G22A (peptide)
peptide: B1 peptide with A3I, G22A
modifications: not checked
B34: OSK1 analog Ala-9 (SEQ ID No: 1407) (peptide)
peptide: B1 peptide with A3I, K9A
modifications: not checked
B35: OSK1 Alanine analog R24A (peptide)
peptide: B1 peptide with A3I, R24A
modifications: not checked
B36: OSK1 analog Ala-15 (SEQ ID No: 1412) (peptide)
peptide: B1 peptide with A3I, L15A
modifications: not checked
B37: OSK1 analog Pro-12, Lys-16, Asp-20, Ile-23, Ile-29, Ala-34 (SEQ ID No: 1393) (peptide)
peptide: GVIINVKCKISPQCLKPCKDAGIRFGKCINGKCACTPK
modifications: not checked
B38: OSK1 Alanine analog K27A (peptide)
peptide: B1 peptide with A3I, K27A
modifications: not checked
B39: OSK1 Alanine analog N30A (peptide)
peptide: B1 peptide with A3I, N30A
modifications: not checked
B40: OSK1 analogue S11R (peptide)
peptide: B1 peptide with A3I, S11R
modifications: not checked

target: human Kv1.3 channel (human), P22001; assay: cell-based or functional assay

Binder | Analog IC50 divided by Ala-1 IC50, IFNg | Analog IC50 divided by Ala-1 IC50, IL2 | WB/IFNg (IC50, pM) | WB/IL-2 (IC50, pM) | Kv1.3 (IC50, pM) | Average IC50 (nM) IL-2, thapsigargin induced, 50% human whole blood
B1 | 0.83 | 0.72 | – | – | – | –
B2 | – | – | 100000 pM | 100000 pM | – | –
B3 | 0.87 | 0.72 | – | – | – | –
B4 | – | – | – | – | 200 pM | –
B5 | 0.73 | 0.91 | – | – | – | –
B6 | – | – | – | – | 41.1 pM | –
B7 | – | – | 10000 pM | – | – | –
B8 | 59.3 | 58.1 | – | – | – | –
B9 | 1.3 | 1.01 | – | – | – | –
B10 | 1.11 | 1.21 | – | – | – | –
B11 | 5.33 | 7.96 | – | – | – | –
B12 | 0.49 | 0.55 | – | – | – | –
B13 | 1.36 | 1.33 | – | – | – | –
B14 | – | – | – | 100 pM | – | –
B15 | 0.48 | 0.59 | – | – | – | –
B16 | 2.3 | 2.25 | – | – | – | –
B17 | – | – | – | 90 pM | – | –
B18 | – | – | – | 90 pM | – | –
B19 | 0.25 | 0.41 | – | – | – | 0.05 nM

Binder | Analog IC50 divided by Ala-1 IC50, IFNg | Analog IC50 divided by Ala-1 IC50, IL2 | WB/IFNg (IC50, pM) | WB/IL-2 (IC50, pM) | Kv1.3 (IC50, pM) | Average IC50 (nM) IL-2, thapsigargin induced, 50% human whole blood
B20 | 3.17 | 3.11 | – | – | – | –
B21 | 1.45 | 1.42 | – | – | – | –
B22 | – | – | 2000 pM | – | – | –
B23 | 25.8 | 25.2 | – | – | – | –
B24 | 0.67 | 0.6 | – | – | – | –
B25 | 0.84 | 0.83 | – | – | – | –
B26 | – | – | 40 pM | – | – | –
B27 | 0.56 | 0.56 | – | – | – | –
B28 | 13.2 | 28.3 | – | – | – | –
B29 | 1 | 1 | – | – | – | –
B30 | – | – | 100000 pM | – | – | –
B31 | – | – | – | 50 pM | – | –
B32 | 2.44 | 3.66 | – | – | – | –
B33 | – | – | – | – | > 3000 pM | –
B34 | 0.6 | 0.65 | – | – | – | –
B35 | – | – | – | – | > 3000 pM | –
B36 | 0.9 | 0.88 | – | – | – | –
B37 | 4.29 | 4.21 | – | – | – | –

Target: T1, human Kv1.1 channel (human), Q09470
Assay: cell-based or functional assay

Binder | Kv1.1 (IC50, pM)
B38 | > 3000 pM
B39 | > 3000 pM
B33 | > 3000 pM

target: human Kv1.3 (human), P22001; assay: cell-based or functional assay

Binder | Kv1.3 (IC50, pM), whole cell patch clamp ePhys
B40 | 40 pM

From US20090297520A1
